Source: ChEMBL document CHEMBL1142214, “Synergistic interaction between phenothiazines and antimicrobial agents against Burkholderia pseudomallei” (2007)

How the values were obtained:
Format in all cases: functional
[1] = test system: Burkholderia pseudomallei; assay: Antimicrobial activity against Burkholderia pseudomallei KHW in presence of 500 uM omeprazole
[2] = test system: Burkholderia pseudomallei; assay: Antimicrobial activity against Burkholderia pseudomallei KHW in presence of 500 uM promazine
[3] = test system: Burkholderia pseudomallei; assay: Antimicrobial activity against Burkholderia pseudomallei KHW in presence of 250 uM omeprazole
[4] = test system: Burkholderia pseudomallei; assay: Antimicrobial activity against Burkholderia pseudomallei KHW in presence of 250 uM promazine

Measured: MIC

CN[C@@H]1[C@H](O)[C@H](NC)[C@H]2O[C@@]3(O)C(=O)C[C@@H](C)O[C@H]3O[C@@H]2[C@H]1O [SPECTINOMYCIN]
64 µg/mL: all assays above
